Pooled drug test results. Numbers come from NIAID ChemDB, via PubChem.

Shared fields: tests in culture; organism: Varicella zoster virus; read-out: EC50

ECn is the concentration giving n% inhibition of infection, replication or growth. Blank or dashed fields: not listed here. Conditions beyond the fields shown may differ between rows.

structure,method,strain or isolate,cells,result
Nc1ccn(C[C@@H](CO)OCP(=O)(O)O)c(=O)n1,cytopathic effect,07/1 (TK-),HEL,0.23 µM
NC1=NC2C(C=CN2CC(CO)CCO)C(=O)N1,cytopathic effect,YS,HEL,0.01 µg/mL
O=c1[nH]c(=O)n([C@H]2C[C@H](O)[C@@H](CO)O2)cc1/C=C/I,plaque count,Ohtomo,HEF,0.0031 µg/mL
Nc1nc2c(ncn2[C@@H]2C=C[C@H](CO)[C@@H](O)C2)c(=O)[nH]1,cytopathic effect,OKA,E6SM,0.64 µg/mL
CCCc1cn([C@H]2C[C@H](O)[C@@H](CO)O2)c(=S)[nH]c1=O,plaque count,HOSEN (TK+),MRC-5,2.2 µM
Nc1ncnc2c1ncn2CC[C@H](O)CCO,cytopathic effect,YS,HEL,>400 µg/mL
Nc1nc(=S)n([C@@H]2O[C@H](CO)[C@@H](O)[C@@H]2O)cc1/C=C/Br,plaque count,CAQU (TK+),MRC-5,46.2 µM
CC(=O)N[C@H]1C[C@@H](n2cnc3c(N)ncnc32)[C@H](O)[C@@H]1O,-,-,HFF,>100 µg/mL
O=c1[nH]c(=O)n([C@H]2C[C@H](O)[C@@H](CO)O2)cc1/C=C/Br,plaque count,KANNO,HEF,0.008 µg/mL
Nc1nc(=S)n([C@@H]2O[C@H](CO)[C@@H](O)[C@@H]2O)cc1Br,plaque count,HOSEN,MRC-5,88.2 µM
Nc1nc(N)c2ncn(C[C@H](CO)OCP(=O)(O)O)c2n1,cytopathic effect,-,HEL,2.1 µM
CC(=O)OCCOCN1c2nc(Cc3ccccc3)[nH]c2C(N)=NS1(=O)=O,plaque count,YS,HEL,>50 µg/mL
C=Cc1cn([C@@H]2O[C@H](CO)[C@@H](O)[C@@H]2O)c(=O)[nH]c1=O,plaque count,Kawaguchi,-,0.9155 µg/mL
O=c1ccn([C@@H]2C[C@H](CO)C[C@H]2CO)c(=O)[nH]1,-,YS,HEL,>100 µg/mL
NC1=NS(=O)(=O)N(Cc2ccccc2)c2nc(Cc3ccccc3)[nH]c21,plaque count,OKA,HEL,12 µg/mL
O=c1[nH]c(=O)n([C@H]2C[C@H](O)[C@@H](CO)O2)cc1C(F)(F)F,cytopathic effect,VEX411,HEF,1 µg/mL
Nc1nc(=S)n([C@@H]2O[C@H](CO)[C@@H](O)[C@@H]2O)cc1Cl,plaque count,HOSEN,MRC-5,244 µM
Nc1ncnc2c1ncn2C[C@@H](CO)OCP(=O)(O)O,cytopathic effect,-,HEL,0.49 µM
Cn1cc(C(=O)NCc2ccc(Cl)cc2)c(=O)c2cc(CN3CCOCC3)ccc21,plaque count,ST varicella isolate,HFF,0.4 µM
CCCCCCCC/C=C/CCCCCCCC(=O)OCC(CO)OCn1cnc2c(=O)[nH]c(N)nc21,cytopathic effect,YS/R (TK-),HEL,38 µM
O=c1[nH]cnc2c1ncn2C1C[C@H](CO)[C@@H](CO)C1,-,YS,HEL,>100 µg/mL
Nc1ncnc2c1ncn2C[C@H](CF)OCP(=O)(O)O,cytopathic effect,-,HEL,>300 µM
Nc1nc2c(ncn2[C@H]2C=C[C@@H](CO)[C@H](O)C2)c(=O)[nH]1,cytopathic effect,YS,E6SM,1.2 µg/mL
Cc1cn([C@H]2C/C(=N\O)[C@@H](CO)O2)c(=O)[nH]c1=O,cytopathic effect,YS/R (TK-),HEL,>200 µg/mL
CO[C@H](CO)[C@@H](O)CCn1cnc2c(N)ncnc21,cytopathic effect,07/1 (TK-),HEL,>400 µg/mL
Nc1nc(=S)n([C@@H]2O[C@H](CO)[C@@H](O)[C@@H]2O)cc1CO,plaque count,HOSEN (TK+),MRC-5,133.3 µM
O=C(O)CP(=O)(O)O,plaque count,13 isolates,HEL,64.1 µM
Nc1nc(=S)n([C@@H]2O[C@H](CO)[C@@H](O)[C@@H]2O)cc1F,plaque count,HOSEN,MRC-5,186 µM
O=c1[nH]c(=O)n([C@@H]2O[C@H](CO)[C@@H](O)[C@@H]2O)cc1/C=C/Br,plaque count,YS/R (TK-),HEL,>57 µM
O=C(NCc1ccc(Cl)cc1)c1c[nH]c2ccc(CCCO)cc2c1=O,plaque count,NAG,-,0.1 µM
O=c1[nH]c(=O)n([C@H]2C[C@H](O)[C@@H](CO)O2)cc1I,plaque count,Batson,HEF,0.44 µg/mL
C=Cc1cn([C@@H]2O[C@H](CO)[C@@H](O)[C@@H]2O)c(=S)[nH]c1=O,plaque count,Kanno-Kohmura (TK-),MRC-5,>266.3 µM
Nc1nc2c(ncn2CCC(CO)CO)c(=O)[nH]1,plaque count,YS (TK+),HEL,3.3 µM
Nc1nc(N)c2ncn(C[C@@H](CO)OCP(=O)(O)O)c2n1,cytopathic effect,-,HEL,2 µM
Nc1ncnc2c1ncn2C[C@@H](CO)OCP(=O)(O)O,plaque count,YS/R (TK-),HEL,0.014 µM
Nc1nc2c(ncn2C[C@H](CF)OCP(=O)(O)O)c(=O)[nH]1,cytopathic effect,-,HEL,107 µM
CCCCCCCC/C=C/CCCCCCCC(=O)O,cytopathic effect,YS/R (TK-),HEL,>100 µM
O=c1[nH]c(=O)n([C@@H]2C[C@H](CO)C[C@H]2CO)cc1I,-,OKA,HEL,>100 µg/mL
Nc1nc2c(ncn2C[C@]2(CO)C[C@H]2CO)c(=O)[nH]1,plaque count,Kawaguchi,MRC-5,0.26 µg/mL
Nc1nc(=S)n([C@H]2C[C@H](O)[C@@H](CO)O2)cc1Cl,plaque count,HOSEN,MRC-5,6.51 µM
O=c1[nH]c(=O)n([C@@H]2O[C@H](CO)[C@@H](O)[C@@H]2O)cc1/C=C/Cl,plaque count,Kawaguchi acyclovir-resistant mutant A8,-,0.000393 µg/mL
CO[C@H](CO)[C@@H](O)CCn1cnc2c(=O)[nH]c(N)nc21,cytopathic effect,YS,HEL,>400 µg/mL
O=c1[nH]c(=S)n([C@H]2C[C@H](O)[C@@H](CO)O2)cc1Br,plaque count,HOSEN,MRC-5,31.4 µM
Nc1nc2c(ncn2C[C@@H](CF)OCP(=O)(O)O)c(=O)[nH]1,cytopathic effect,-,HEL,≥300 µM
CO[C@H](CO)[C@@H](O)CCn1ccc(N)nc1=O,cytopathic effect,YS,HEL,>400 µg/mL
Nc1nc(=O)n([C@@H]2O[C@H](CO)[C@@H](O)[C@@H]2F)cc1I,plaque count,OKA (TK+),HEL,0.054 µM

Repeating the first 6 entries:

structure,method,strain or isolate,cells,result
Nc1ccn(C[C@@H](CO)OCP(=O)(O)O)c(=O)n1,cytopathic effect,07/1 (TK-),HEL,0.23 µM
NC1=NC2C(C=CN2CC(CO)CCO)C(=O)N1,cytopathic effect,YS,HEL,0.01 µg/mL
O=c1[nH]c(=O)n([C@H]2C[C@H](O)[C@@H](CO)O2)cc1/C=C/I,plaque count,Ohtomo,HEF,0.0031 µg/mL
Nc1nc2c(ncn2[C@@H]2C=C[C@H](CO)[C@@H](O)C2)c(=O)[nH]1,cytopathic effect,OKA,E6SM,0.64 µg/mL
CCCc1cn([C@H]2C[C@H](O)[C@@H](CO)O2)c(=S)[nH]c1=O,plaque count,HOSEN (TK+),MRC-5,2.2 µM
Nc1ncnc2c1ncn2CC[C@H](O)CCO,cytopathic effect,YS,HEL,>400 µg/mL